Measured values from several laboratories, pooled; numbers as filed in NIAID ChemDB.

All rows: tests in culture; species: HIV-1; read-out: fold resistance

Fold resistance: result on the changed form divided by that on wild type.

smiles	read by	cell line	strain or isolate	mutations	value
Cc1nc2sccn2c1C(=O)N[C@@H](Cc1ccccc1)[C@H](O)CN(CC(C)C)S(=O)(=O)c1ccc2nc(N)oc2c1	cytopathic effect / MTT	MT-4	LAI	PR-L010F M046I M071V I084V	14
CCc1c(Sc2cc(C)cc(C)c2)n(COCCO)c(=O)[nH]c1=O	syncytia	CEM	IIIB	RT-Y181C	290
CCOc1ccc(F)c(CCNC(=S)Nc2ncc(C(F)(F)F)s2)c1Cl	cytopathic effect / XTT	MT-4	IIIB	RT-L100I	>28.6
CO/N=C(\C)COc1cc(NC(=S)OC(C)C)ccc1Cl	syncytia	CEM	-	RT-E138K	7.13
CC(C)[C@H](NC(=O)OCc1ccccn1)C(=O)N[C@@H](Cc1ccccc1)[C@@H](O)C[C@H](Cc1ccccc1)NC(=O)OCc1cccnc1	p24	MT-4	NL4-3	PR-M46I V82T	1.875
CC(C)CN(C[C@@H](O)[C@H](Cc1ccccc1)NC(=O)OC1COC2OCCC12)S(=O)(=O)c1ccc2nc(N)oc2c1	cytopathic effect / MTT	MT-4	LAI	PR-L010F M046I M071V I084V	1.3
Cc1ccc(C)c(CS(=O)(=O)c2cccc[n+]2[O-])c1	cytopathic effect	CEM	-	RT-K103N	2.07
CCN1c2ncc(CCOc3ccc(Nc4cccc(CC(=O)O)c4)cc3C)cc2C(=O)N(C)c2cccnc21	p24	C8166	-	RT-K103N Y181C	1
Cc1ccc2c(C)ccc(-n3c(SCC(=O)Nc4ccc(S(N)(=O)=O)cc4Cl)nnc3C(F)(F)F)c2c1	luciferase	HeLa + HeLa-JC53	NL4-3	RT-Y188L	5.8
CCN1c2ncc(CCOc3ccc(C(=O)Nc4cccnc4C)cc3C)cc2C(=O)N(C)c2cccnc21	p24	C8166	-	RT-K103N Y181C	1
O=C1Nc2ccc(F)c(F)c2[C@@](/C=C/C2CC2)(C(F)(F)F)N1	-	-	-	RT-Y188L	60.5
CC(C)(C)c1ccc(-n2nnnc2SCC(=O)Nc2ccccc2Cl)c(Br)c1	luciferase	C8166	RT-K103N Y181C	1(RT-K103N Y181C)	>2
CCOCn1c(Cc2ccccc2)c(C(C)C)c(=O)[nH]c1=O	syncytia	CEM	IIIB TIBO R82913-resistant (RT K103N)	RT-K103N	650
Cc1ccc(NC(=O)CSc2nnc(C)n2-c2ccc(F)cc2)c(Cl)c1	luciferase	HeLa + HeLa-JC53	NL4-3	RT-K103N Y181C	>4.3
O=C1Nc2ccc(F)cc2C(C#Cc2ccco2)(C(F)(F)F)O1	-	-	-	RT-K103N	126
FC(F)(Sc1ncccn1)c1nc2ccccc2o1	-	-	OC/100	RT-L100I	1.21
O=C1Nc2ccc(Cl)cc2[C@@](/C=C/C2CC2)(C(F)(F)F)N1	-	-	-	RT-Y188L	40
COc1ccc(-n2c(C)nnc2SCC(=O)Nc2ccc(S(N)(=O)=O)cc2Cl)c2ccccc12	luciferase	HeLa + HeLa-JC53	NL4-3	RT-Y188L	157
CC(C)=CCOc1cc(NC(=S)c2ccoc2C)ccc1Cl	p24	CEM + CEM-SS	4XAZT+Y181C (RT D67N K70R Y181C T215Y K219Q)	RT-D67N K70R Y181C T215Y K219Q	33
Cc1ccc(-n2c(C)nnc2SCC(=O)Nc2ccc(C(C)C)cc2Br)cc1	luciferase	HeLa + HeLa-JC53	NL4-3	RT-K103N Y181C	>71
CC(C)OC(=O)c1cc(NC(=S)N(C)C(C)C)ccc1Cl	syncytia	CEM	-	RT-V106A	>1
CCOCn1c(Sc2ccccc2)c(C(C)C)c(=O)[nH]c1=O	syncytia	CEM	IIIB (TIBO 82150) (RT-L100I)	RT-L100I	4.4
CS(=O)(=O)Nc1ccc(NC(=O)COc2ccc(Cl)cc2C(=O)c2ccccc2)cc1	cytopathic effect / propidium iodide	MT-4	Nevirapine-resistant (RT Y181C)	RT-Y181C	~10
CCN1c2ncc(CCOc3ccc(C(=O)NC(C)(C)C(=O)O)cc3C)cc2C(=O)N(C)c2cccnc21	p24	C8166	-	RT-K103N Y181C	>1
O=C1Nc2ccc(Cl)cc2C(C#Cc2ccncc2)(C(F)(F)F)O1	-	-	-	RT-K103N	40.1
CCCN(C(=O)C(=O)N(C)C)C12CCC(Cn3c1nc(C(=O)NCc1ccc(F)cc1)c(O)c3=O)OC2	single cycle	HeLa	-	G140S/Q148H	>209
Nc1nc(NC2CC2)c2ncn([C@H]3CO[C@@H](CO)O3)c2n1	RT activity	MT-2	IIIB BCH-13520-resistant (RT V75I)	RT-V75I	3
Cc1ccc(-n2c(C)nnc2SCC(=O)Nc2ccc(Oc3ccccc3)cc2)cc1	luciferase	HeLa + HeLa-JC53	NL4-3	RT-K103N Y181C	>9.1
CCOc1c(Cl)cc(F)c(CCNC(=S)Nc2ccc(Br)cn2)c1Cl	cytopathic effect / XTT	MT-4	IIIB	RT-L100I	76.9
CC(C)OC(=S)Nc1ccc(Cl)c(C(=O)OC2CCCC2)c1	syncytia	CEM	-	RT-E138K	29.7
CCOCn1c(Sc2ccccc2)c(CC)c(=O)[nH]c1=S	syncytia	CEM	IIIB (TIBO 82150) (RT-L100I)	RT-L100I	5.45
Cc1cc(C#N)cc(C(=O)c2cc(Cl)ccc2OCC(=O)Nc2cnc(S(N)(=O)=O)cc2C)c1	β-galactosidase	HeLa + HELA CD4+	HXB2	RT-V106I Y181C	~10
CNc1nc2ccc(S(=O)(=O)N(CC(C)C)C[C@@H](O)[C@H](Cc3ccccc3)NC(=O)c3cccc(N)c3C)cc2o1	cytopathic effect / MTT	MT-4	LAI	PR-L010F M046I M071V I084V	40
CCC(C)OC(=O)c1cc(NC(=S)OC(C)C)ccc1Cl	syncytia	CEM	-	RT-E138K	27.3
CCc1c(Sc2ccccc2)n(COCc2ccccc2)c(=O)[nH]c1=O	syncytia	CEM	IIIB	RT-Y181C	205
O=C1Nc2ccc(Cl)cc2C(OCCC2CC2)(C(F)(F)F)O1	-	-	-	RT-K103N	54.5
Nc1ncnc2c1ncn2[C@H]1C=C[C@@H](OCP(=O)(O)O)O1	cytopathic effect	MT-2	-	RT-K65R	2.9
CCN1C(=O)c2c(O)c(=O)c(C(=O)NCc3ccc(F)c(Cl)c3F)cn2[C@H]2CCO[C@H]21	luminescence	MT-2	-	E92Q/N155H	2.2
CN(C)C1=C(C#N)/C(=C2/C(C#N)=C(N(C)C)N(c3ccc([N+](=O)[O-])cc3)c3c2n(C)c2ccccc32)c2c(c3ccccc3n2C)N1c1ccc([N+](=O)[O-])cc1	cytopathic effect / XTT	CEM + CEM-SS	6R AZT-resistant (RT D67N K70R T215Y K219Q)	RT-D67N K70R T215Y K219Q	14.6
Cc1cc(C)c(CS(=O)c2cccc[n+]2[O-])c(C)c1	cytopathic effect	CEM	-	RT-K103N	4.58
CCN1c2ncc(CCOc3ccc(-c4ccccn4)cc3C)cc2C(=O)N(C)c2cccnc21	p24	C8166	-	RT-K103N Y181C	1
CC(C)CN(C[C@@H](O)[C@H](Cc1ccccc1)NC(=O)OCc1cccnc1)S(=O)(=O)c1ccc2nc(N)oc2c1	cytopathic effect / MTT	MT-4	LAI	PR-L010F M046I M071V I084V	50
Cc1ccnc(SC(F)(F)c2nc3ccccc3o2)n1	-	-	OC/100(RT-L100I	RT-L100I	5.67
CCN1C(=O)c2c(O)c(=O)c(C(=O)NCc3c(F)cc(F)cc3F)cn2[C@H]2CCOC[C@H]21	luminescence	MT-2	-	E92Q/N155H	0.9
COc1ccnc2[nH]cc(C(=O)C(=O)N3CCN(C(=O)c4ccccc4)C[C@H]3C)c12	RT activity	MT-2	NL4-3(GP120-M475I) Recombinant	GP120-M475I	40.1
Cc1nnc(SCC(=O)Nc2ccccc2Br)n1-c1ccc(N(C)C)c2ccccc12	luciferase	HeLa + HeLa-JC53	NL4-3	RT-Y188L	600
Cc1cc(C#N)cc(C(=O)c2ccccc2OCC(=O)Nc2ccc(S(N)(=O)=O)cc2C)c1	β-galactosidase	HeLa MAGI + HeLa	-	RT-K103N	2
C[C@H](Cn1cnc2c(N)ncnc21)OCP(=O)(O)O	recombinant virus assay	-	-	RT-M184V	0.7
CC(C)(C)C1=NC(c2ccccc2)(C(F)(F)F)NC(=O)N1	luciferase	TZM-bl	NL4-3	L100I	41
O=C(O[C@@H]1[C@H](OC(=O)c2ccccc2)[C@@H](CO)O[C@H]1n1cnc2c(N(C(=O)c3ccccc3)C(=O)c3ccccc3)ncnc21)c1ccccc1	β-galactosidase	HeLaP4	NL4-3	G140S-Q184H	0.99
CCN1c2ncc(CCOc3ccc(-c4ccc(C(=O)O)nc4)cc3C)cc2C(=O)N(C)c2cccnc21	p24	C8166	-	RT-K103N Y181C	1
Cc1ccc(NC(=O)CSc2nnc(C)n2-c2ccc(C(F)(F)F)cc2)c(Cl)c1	luciferase	HeLa + HeLa-JC53	NL4-3	RT-K103N Y181C	12
Cc1cc(OCCCS(N)(=O)=O)ccc1NC(=O)COc1ccc(Cl)cc1C(=O)c1cc(F)cc(C(F)(F)F)c1	β-galactosidase	HeLa + HELA CD4+	HXB2	RT-V108I	~1
Cc1ccc(C)c(CSc2c(Cl)ccc[n+]2[O-])c1	cytopathic effect	CEM	-	RT-Y181C	≥400
CCC(=O)c1ccc(F)c([C@@H]2C[C@@H]2NC(=O)Nc2ccc(C#N)cn2)c1O	β-galactosidase / luminescence	TZM-bl	LAI	NNRTI-resistant (RT E138A)	2
Cc1cc(C#N)cc(C(=O)c2cc(Cl)ccc2OCC(=O)Nc2ccc(S(N)(=O)=O)cc2C)c1	β-galactosidase	HeLa + HELA CD4+	HXB2	RT-V106A Y181C	~1
O=C1Nc2ccc(Cl)cc2C(C#Cc2ccoc2)(C(F)(F)F)O1	-	-	-	RT-K103N	72
Cc1ccc(-n2c(SCC(=O)Nc3ccc(C)cc3Br)nnc2C(F)(F)F)cc1	luciferase	HeLa + HeLa-JC53	NL4-3	RT-K103N Y181C	2200
Nc1nc2c(ncn2[C@H]2CO[C@@H](CO)O2)c(=O)[nH]1	cytopathic effect / XTT	MT-2	-	RT-L74V	~1.67

An empty or dashed field is not shown. Neighbouring rows are from separate reports.